Measured values published in article PMC10654105, “Deep mutational scanning of influenza A virus neuraminidase facilitates the identification of drug resistance mutations in vivo” (2023).

The chains behind the UniProt entries cited, without tags or fusion partners. Where a name states a change or a piece, a line headed by the entry shows the natural chain unless it says otherwise.
UniProt P03470: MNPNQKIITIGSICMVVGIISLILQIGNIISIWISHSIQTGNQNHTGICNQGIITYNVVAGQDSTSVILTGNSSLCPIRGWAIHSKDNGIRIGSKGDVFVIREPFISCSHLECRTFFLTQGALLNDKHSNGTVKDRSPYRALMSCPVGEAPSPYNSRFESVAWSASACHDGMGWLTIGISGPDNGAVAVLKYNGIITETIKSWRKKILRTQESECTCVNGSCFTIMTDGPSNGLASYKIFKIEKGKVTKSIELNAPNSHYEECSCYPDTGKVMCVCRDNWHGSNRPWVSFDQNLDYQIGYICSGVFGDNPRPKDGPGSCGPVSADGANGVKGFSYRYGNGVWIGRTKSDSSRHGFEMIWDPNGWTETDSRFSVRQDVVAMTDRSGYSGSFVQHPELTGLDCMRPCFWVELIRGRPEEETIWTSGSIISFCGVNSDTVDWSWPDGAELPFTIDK

How the values were obtained:
[1] = test system: WT virus (influenza A/WSN/33); experiment: In vivo dose response of NAIs against WT virus in mice; conditions: for IC90 dose: WT virus, OS orally, ZA intranasally, PE intramuscularly; for inhibition of WT virus replication: at IC90 dose
[2] = test system: WT NA recombinant protein; experiment: Isothermal titration calorimetry, WT NA; conditions: ITC
[3] = molecular target: NA of influenza A/WSN/33 (H1N1) virus, WT (Influenza A virus, UniProt P03470); experiment: Neuraminidase activity assay (MUNANA), WT recombinant virus; conditions: read-out: IC50 (mean ± SD), three independent experiments

## CC(=O)N[C@H]1[C@H]([C@H](O)[C@H](O)CO)OC(C(=O)O)=C[C@@H]1N=C(N)N
[1]
  IC90 dose: 0.1 mg/kg/day
  inhibition of WT virus replication: ~ 10 fold

## CCOC(=O)C1=C[C@@H](OC(CC)CC)[C@H](NC(C)=O)[C@@H](N)C1
[1]
  IC90 dose: 1 mg/kg/day
  inhibition of WT virus replication: ~ 10 fold

## peramivir
[2]
  -TΔS: -8.27 kcal/mol
  ΔG: -9.3 kcal/mol
  ΔH: -1.03 ± 0.145 kcal/mol
[2]; 25°C, 20 mM MES pH 6.5, 200 mM NaCl
  Kd: 152 nM
[3]
  IC50: 0.01 nM
[1]
  IC90 dose: 1 mg/kg/day
  inhibition of WT virus replication: ~ 10 fold
